A mixed list of measured activities; the numbers were collected in NIAID ChemDB.

All rows: tests in culture

Rows are shuffled and stem from different studies. ECn: concentration that inhibits the pathogen or its effect by n%. A number after MIC or MFC names an inhibition level or a share of isolates. An empty or dashed field is not shown. Inhibition is in % at the dose shown (toxicity tests: loss of growth or viability).

{"smiles": "Cc1ccn2nc(C)c(C(=O)NCc3ccc(C4CCN(c5ccc(OC(F)(F)F)cc5)CC4)c(F)c3)c2c1.Cl", "read by": "fluorescence", "agent": "Mycobacterium avium", "measure": "inhibition", "dose": "0.066 µM", "result": "85%"}
{"smiles": "O=c1[nH]c(=O)n([C@@H]2O[C@H](CO)[C@@H](O)[C@@H]2O)cc1/C=C/Cl", "read by": "plaque count", "agent": "Varicella zoster virus", "strain": "Ohtomo", "cells": "HELF", "measure": "inhibition", "dose": "0.001 µg/mL", "result": "100%"}
{"smiles": "COc1ccc2oc(=O)n(-c3cccc(F)c3)c(=S)c2c1", "agent": "Mycobacterium kansasii", "strain": "6509/96", "measure": "MIC", "conditions": "14 d", "result": "32 µM"}
{"smiles": "CC(C)(O)c1cn(-c2ccc3ccccc3c2)nn1", "read by": "broth dilution", "agent": "Candida tropicalis", "strain": "URM 4790", "measure": "inhibition", "dose": "2048 µg/mL", "result": "0%"}
{"smiles": "Cn1cc(C(=O)NCc2ccc(Cl)cc2)c(=O)c2cc(CN3CCOCC3)ccc21", "read by": "plaque count", "agent": "Varicella zoster virus", "strain": "CO varicella isolate", "cells": "HFF", "measure": "inhibition", "dose": "15 µM", "result": "90%"}
{"smiles": "CCC(CC)O[C@@H]1C=C(C(=O)O)C[C@H](N)[C@H]1NC(C)=O", "read by": "plaque count", "agent": "Influenza B virus", "strain": "Isolate C29C", "cells": "MDCK", "measure": "EC50", "result": "0.045 µg/mL"}
{"smiles": "O=C(Nc1cccc(C2=NCCN2)c1)Nc1cccc(C(F)(F)F)c1", "agent": "Klebsiella pneumoniae", "strain": "KL21", "measure": "MIC", "result": ">300 µM"}
{"smiles": "CC(C)(O)c1cn(-c2cccc3ccccc23)nn1", "read by": "broth dilution", "agent": "Candida albicans", "strain": "URM 4127", "measure": "inhibition", "dose": "2048 µg/mL", "result": "0%"}
{"smiles": "O=c1oc2ccc(Br)cc2c(=S)n1-c1ccc(Br)cc1", "agent": "Mycobacterium kansasii", "strain": "My 235/80", "measure": "MIC", "conditions": "14 d", "result": "4 µM"}
{"smiles": "CC(=O)N[C@H]1[C@H]([C@H](O)[C@H](O)CO)OC(C(=O)O)=C[C@@H]1N=C(N)N", "agent": "Influenza A virus", "strain": "Influenza A/Shandong/09/93 (H3N2)", "cells": "MDCK", "measure": "EC50", "result": "0.5 µM"}
{"smiles": "O=S(=O)(O)c1ccc2cc(O)c(S(=O)(=O)O)cc2c1", "read by": "cytopathic effect", "agent": "Adenovirus", "strain": "TYPE 3", "cells": "Human amnion AV3 cells", "measure": "inhibition", "dose": "50 µg/mL", "result": "0%"}
{"smiles": "Cc1cn([C@@H]2O[C@H](CO)[C@@H](O)[C@@H]2O)c(=O)[nH]c1=O", "read by": "plaque count", "agent": "Varicella zoster virus", "strain": "KANNO", "cells": "HELF", "measure": "inhibition", "dose": "0.01 µg/mL", "result": "34%"}
{"smiles": "CCOC(=O)c1ccc(OCCC2CCN(c3ccc(C)nn3)CC2)cc1", "read by": "neutral red", "agent": "Rhinovirus", "strain": "SF-1662 (ICAM-1 receptor group 92)", "cells": "KB", "measure": "EC50", "result": "0.003 µM"}
{"smiles": "CCCC(CCC)C(NC(C)=O)C1CC(C(=O)O)CC1N=C(N)N", "agent": "Influenza A virus", "strain": "H1N1 A/Beijing/252/95", "cells": "MDCK", "measure": "EC50", "result": "0.37 µM"}
{"smiles": "COc1cc(-c2ccc(N=Nc3ccc4c(S(=O)(=O)O)cc(S(=O)(=O)O)c(N)c4c3O)c(OC)c2)ccc1N=Nc1ccc2c(S(=O)(=O)O)cc(S(=O)(=O)O)c(N)c2c1O", "read by": "cytopathic effect", "agent": "Adenovirus", "strain": "TYPE 3", "cells": "Human embryonic lung cells", "measure": "inhibition", "dose": "50 µg/mL", "result": "0%"}
{"smiles": "Oc1cccc(C=Nc2ccccc2O)c1", "agent": "Cryptococcus gattii", "strain": "L24/01", "measure": "MIC99", "result": "5.7 µg/mL"}
{"smiles": "CCC(CC)[C@H](NC(C)=O)[C@@H]1C[C@@H](C(=O)O)C[C@H]1N=C(N)N", "agent": "Influenza A virus", "strain": "H1N1 A/NWS/33", "cells": "MDCK", "measure": "EC50", "result": "19 µM"}
{"smiles": "[2H]c1c(C([2H])([2H])[2H])c([2H])n2c(C(=O)NCc3ccc(S(F)(F)(F)(F)F)cc3)c(C)nc2c1[2H]", "read by": "fluorescence", "agent": "Mycobacterium avium", "measure": "inhibition", "dose": "0.11 µM", "result": "85%"}
{"smiles": "O=C(Nc1ccc2cc(S(=O)(=O)[O-])cc(S(=O)(=O)[O-])c2c1)c1ccccc1", "read by": "cytopathic effect", "agent": "Adenovirus", "strain": "TYPE 3", "cells": "Human embryonic lung cells", "measure": "inhibition", "dose": "10 µg/mL", "result": "0%"}
{"smiles": "NC(=O)NNC(=O)Nc1cc(C(F)(F)F)cc(C(F)(F)F)c1", "agent": "Escherichia coli", "strain": "ES142", "measure": "MIC", "result": ">446 µM"}
{"smiles": "CCc1nc2ccc(Cl)cn2c1C(=O)NCc1cc(F)c(Oc2ccc(Oc3ccc(OC(F)(F)F)cc3)cc2)c(F)c1.Cl", "read by": "fluorescence", "agent": "Mycobacterium avium", "measure": "inhibition", "dose": "0.018 µM", "result": "85%"}
{"smiles": "Cc1ccc2oc(=O)n(-c3ccc(Cl)cc3)c(=S)c2c1", "agent": "Mycobacterium kansasii", "strain": "My 235/80", "measure": "MIC", "conditions": "21 d", "result": "4 µM"}
{"smiles": "C/C=C/C/C=C/CCC(=O)[C@H]1O[C@H]1C(N)=O", "agent": "Escherichia coli", "strain": "SJ83 (GSHA)", "measure": "MIC", "result": "20 µg/mL"}
{"smiles": "CC1(C)N=C(N)N=C(N)N1OCCCOc1cc(Cl)c(Cl)cc1Cl", "agent": "Mycobacterium avium complex", "strain": "1409", "measure": "MIC", "result": "1 µg/mL"}
{"smiles": "OC[C@H]1O[C@@H](n2c(Cl)nc3cc(Cl)c(Cl)cc32)[C@H](O)[C@@H]1O", "read by": "plaque count", "agent": "Human cytomegalovirus", "strain": "Recombinant C4 (D341E)", "measure": "EC50", "result": "68 µM"}
{"smiles": "Cc1cn([C@@H]2O[C@H](CO)[C@@H](O)[C@@H]2F)c(=O)nc1N", "read by": "plaque count", "agent": "Varicella zoster virus", "strain": "KANNO", "cells": "HELF", "measure": "inhibition", "dose": "0.01 µg/mL", "result": "67%"}
{"smiles": "COc1ccc2oc(=S)n(-c3cccc(Cl)c3)c(=S)c2c1", "agent": "Mycobacterium kansasii", "strain": "6509/96", "measure": "MIC", "conditions": "21 d", "result": "8 µM"}
{"smiles": "CC(C)(O)c1cn(-c2ccc([N+](=O)[O-])cc2)nn1", "read by": "broth dilution", "agent": "Candida albicans", "strain": "URM 4987", "measure": "inhibition", "dose": "2048 µg/mL", "result": "0%"}
{"smiles": "O=C(NCc1ccc(Cl)cc1)c1c[nH]c2c(F)cccc2c1=O", "read by": "plaque count", "agent": "Simian varicella-zoster virus", "measure": "EC50", "result": "4.3 µM"}
{"smiles": "O=S(=O)(O)c1ccc2ccc(S(=O)(=O)O)cc2c1", "read by": "cytopathic effect", "agent": "Herpes simplex virus", "cells": "Human conjunctiva cells", "measure": "inhibition", "dose": "5 µg/mL", "result": "0%"}
{"smiles": "C=CCc1ccc(O)c(OC)c1", "read by": "turbidity", "agent": "Candida tropicalis", "strain": "2854", "measure": "MIC90", "result": "485 µg/mL"}
{"smiles": "Oc1ccccc1N=Cc1ccc(O)c(O)c1O", "agent": "Cryptococcus gattii", "strain": "196L/03", "measure": "MIC99", "result": "22.6 µg/mL"}
{"smiles": "CN(NC(=O)Nc1cc(C(F)(F)F)cc(C(F)(F)F)c1)C(=O)Nc1cc(C(F)(F)F)cc(C(F)(F)F)c1", "agent": "Klebsiella pneumoniae", "strain": "KL21", "measure": "MIC", "result": "300 µM"}
{"smiles": "Nc1nc(=O)n([C@@H]2O[C@H](CO)[C@@H](O)[C@@H]2F)cc1I", "read by": "plaque count", "agent": "Varicella zoster virus", "strain": "OKA", "cells": "HELF", "measure": "inhibition", "dose": "0.001 µg/mL", "result": "0%"}
{"smiles": "Fc1ccc2oc(=S)n(-c3ccc(Cl)c(Cl)c3)c(=S)c2c1", "agent": "Mycobacterium kansasii", "strain": "My 235/80", "measure": "MIC", "conditions": "21 d", "result": "4 µM"}
{"smiles": "Oc1ccccc1N=Cc1ccccc1", "read by": "broth dilution", "agent": "Cryptococcus spp.", "strain": "28957", "measure": "MIC", "result": "8 µg/mL"}
{"smiles": "Cc1ccc(-n2cc(C(C)(C)O)nn2)cc1C", "read by": "broth dilution", "agent": "Candida tropicalis", "strain": "URM 4790", "measure": "inhibition", "dose": "2048 µg/mL", "result": "0%"}
{"smiles": "N#Cc1cc([N+](=O)[O-])ccc1Oc1ccc(Cl)c(Cl)c1", "agent": "Coxsackie virus", "strain": "TYPE A21", "cells": "VERO", "measure": "inhibition", "dose": "0.19 µg/mL", "result": "83%"}
{"smiles": "COc1ccn2c(C(=O)NCc3ccc(N4CCN(c5ccc(OC(F)(F)F)cc5)[C@@H](C)C4)c(F)c3)c(C)nc2c1", "read by": "fluorescence", "agent": "Mycobacterium avium", "measure": "inhibition", "dose": "0.37 µM", "result": "85%"}
{"smiles": "O=C(Nc1cc(C(F)(F)F)cc(C(F)(F)F)c1)NN(Cc1cccc(O)c1)C(=O)Nc1cc(C(F)(F)F)cc(C(F)(F)F)c1", "agent": "Klebsiella pneumoniae", "strain": "KL21", "measure": "MIC", "result": ">300 µM"}
{"smiles": "Oc1ccccc1N=Cc1ccc(F)cc1", "agent": "Cryptococcus neoformans", "strain": "LMM 820", "measure": "MIC99", "result": "4 µg/mL"}
{"smiles": "Nc1ncnc2c1ncn2C=C1CC1CO", "read by": "plaque count", "agent": "Human cytomegalovirus", "strain": "VR4991 (ganciclovir-resistant)", "measure": "EC50", "result": "1.7 µM"}
{"smiles": "O=S(=O)(O)c1cc(O)c2c(O)cc(S(=O)(=O)O)cc2c1", "read by": "cytopathic effect", "agent": "Herpes simplex virus", "cells": "Human amnion AV3 cells", "measure": "inhibition", "dose": "10 µg/mL", "result": "0%"}
{"smiles": "O=c1[nH]c(=O)n([C@H]2C[C@H](O)[C@@H](CO)O2)cc1I", "read by": "plaque count", "agent": "Varicella zoster virus", "strain": "YS", "cells": "HELF", "measure": "inhibition", "dose": "0.1 µg/mL", "result": "5%"}
{"smiles": "Cc1cc(-c2ccc(N=Nc3c(S(=O)(=O)O)cc4cc(S(=O)(=O)O)cc(N)c4c3O)c(C)c2)ccc1N=Nc1c(S(=O)(=O)O)cc2cc(S(=O)(=O)O)cc(N)c2c1O", "read by": "cytopathic effect", "agent": "Herpes simplex virus", "cells": "Human conjunctiva cells", "measure": "inhibition", "dose": "50 µg/mL", "result": "100%"}
{"smiles": "Cc1ccc(-n2c(=S)oc3ccc(C)cc3c2=S)cc1", "agent": "Mycobacterium kansasii", "strain": "My 235/80", "measure": "MIC", "conditions": "14 d", "result": "2 µM"}
{"smiles": "CCc1nc2cc(Cl)ccn2c1C(=O)NCc1ccc(N2CCN(c3ccc(OC(F)(F)F)cc3)[C@@H](CC)C2)c(F)c1", "read by": "fluorescence", "agent": "Mycobacterium avium", "measure": "inhibition", "dose": "0.009 µM", "result": "85%"}
{"smiles": "O=S(=O)(O)c1cccc2c(O)cccc12", "read by": "cytopathic effect", "agent": "Herpes simplex virus", "cells": "Human conjunctiva cells", "measure": "inhibition", "dose": "50 µg/mL", "result": "0%"}
{"smiles": "CCOC(=O)c1c(C)nc(NCCCNc2ccnc3cc(Cl)ccc23)nc1-c1ccccc1", "agent": "Cryptococcus gattii", "strain": "547/OTTI-97-PI-10", "measure": "MIC99", "result": "16 µg/mL"}
{"smiles": "O=[N+]([O-])c1cc([N+](=O)[O-])c2ccc(S(=O)(=O)O)cc2c1O", "read by": "cytopathic effect", "agent": "Adenovirus", "strain": "TYPE 3", "cells": "Human embryonic lung cells", "measure": "inhibition", "dose": "5 µg/mL", "result": "0%"}
{"smiles": "Cc1cc(CCCOc2c(C)cc(-c3noc(C(F)(F)F)n3)cc2C)on1", "read by": "cytopathic effect / visual reading", "agent": "Rhinovirus", "strain": "Isolate 29", "cells": "OHIO HELA-I", "measure": "EC50", "result": ">1 µg/mL"}
{"smiles": "CCC(CC)O[C@@H]1C=C(C(=O)O)C[C@H](N)[C@H]1NC(C)=O", "read by": "visual reading", "agent": "Influenza A virus", "strain": "H1N1 A/TEXAS/36/91", "cells": "MDCK", "measure": "EC50", "result": "0.16 µM"}
{"smiles": "Nc1ccc(S(=O)(=O)[O-])c2c(S(=O)(=O)[O-])ccc(O)c12", "read by": "cytopathic effect", "agent": "Adenovirus", "strain": "TYPE 3", "cells": "Human amnion AV3 cells", "measure": "inhibition", "dose": "50 µg/mL", "result": "40%"}

A second listing of 3 rows from above:

smiles,read by,agent,strain,cells,measure,dose,conditions,result
Cc1ccc2oc(=O)n(-c3ccc(Cl)cc3)c(=S)c2c1,,Mycobacterium kansasii,My 235/80,,MIC,,21 d,4 µM
Cc1ccc(-n2cc(C(C)(C)O)nn2)cc1C,broth dilution,Candida tropicalis,URM 4790,,inhibition,2048 µg/mL,,0%
Oc1cccc(C=Nc2ccccc2O)c1,,Cryptococcus gattii,L24/01,,MIC99,,,5.7 µg/mL